Measured values from several laboratories, pooled; numbers as filed in NIAID ChemDB.

Common to all: growth or infection tests

Inhibition is in % at the dose shown (toxicity tests: loss of growth or viability). A number after MIC or MFC names an inhibition level or a share of isolates. ECn is the concentration giving n% inhibition of infection, replication or growth. Fold resistance has wild type as its base. An empty or dashed field is not shown. Neighbouring rows are from separate reports. Zones are inhibition diameters on agar.

structure | cells | mutations | tested at | species | read by | measure | strain or isolate | value
O=C1C(c2[nH]c3ccc(S(=O)(=O)O)cc3c2O)=Nc2ccc(S(=O)(=O)O)cc21 | Human conjunctiva cells |  | 5 µg/mL | Herpes simplex virus | cytopathic effect | inhibition |  | 0%
CC(C)(C)c1ccc(CSc2ncnc3c2ncn3[C@@H]2O[C@H](CO)[C@@H](O)[C@H]2O)cc1 |  |  | 10 µM | Toxoplasma gondii |  | inhibition | RH (WILD TYPE) | 28.3%
CCOC(=O)c1ccc(OCCC2CCN(c3ccc(C)nn3)CC2)cc1 | KB |  |  | Rhinovirus | neutral red | EC50 | 6360-CV41 (ICAM-1 receptor group 63) | 0.027 µM
Nc1nc2c(ncn2COC(CO)CO)c(=O)[nH]1 | MRC-5 |  |  | Vervet monkey cytomegalovirus | plaque count | EC50 | CSG | 13 µM
Nc1ncnc2c1ncn2[C@@H]1C=C[C@@H](O)[C@H]1O | CV-1 |  |  | Measles virus | neutral red | EC50 | SA | >100 µg/mL
O=C(NN1C(=O)CSC1C1C(c2ccccc2)=Nc2ccccc21)N1c2ccccc2C=Cc2ccccc21 |  |  | 750 µg/mL | Aspergillus terreus | agar diffusion | zone | MTCC-1782 | 6 mm
O=C(Nc1ccc(S(=O)(=O)[O-])c2cccc(S(=O)(=O)[O-])c12)c1ccccc1 | Human amnion AV3 cells |  | 5 µg/mL | Adenovirus | cytopathic effect | inhibition | TYPE 3 | 0%
Nc1nc2c(ncn2COC(CO)CO)c(=O)[nH]1 | MRC-5 |  |  | Human cytomegalovirus | hybridisation | EC50 | C9213 | 0.4 µM
CC(C)Nc1nc2cc(Cl)c(Cl)cc2n1[C@H]1O[C@@H](CO)[C@H](O)[C@@H]1O | HFF |  |  | Guinea pig cytomegalovirus | plaque count | EC50 |  | >53 µM
Nc1ccccc1S(=O)(=O)O | Human amnion AV3 cells |  | 10 µg/mL | Herpes simplex virus | cytopathic effect | inhibition |  | 0%
Nc1nc2c(ncn2COC(CO)CO)c(=O)[nH]1 | HEL |  | 10 µM | Cytomegalovirus |  | inhibition |  | 98%
Nc1ncnc2c1ncn2[C@@H]1C[C@H](N)[C@@H](O)[C@H]1O | CV-1 |  |  | Measles virus | cytopathic effect | EC50 | BIL | 100 µg/mL
O=c1[nH]c(=O)n([C@H]2C[C@H](O)[C@@H](CO)O2)cc1/C=C/Br | HELF |  | 0.01 µg/mL | Varicella zoster virus | plaque count | inhibition | Kawaguchi | 95%
CCCCCCCN=C(N)c1ccc(N2CCN(c3ccccc3)CC2)cc1 |  |  | 10 µg/mL | Pneumocystis carinii |  | inhibition |  | 90%
O=C(NN=CC1C(c2ccccc2)=Nc2ccc(Cl)cc21)N1c2ccccc2C=Cc2ccccc21 |  |  | 750 µg/mL | Aspergillus oryzae | agar diffusion | zone | MTCC-3567 | 11 mm
O[C@@H]1[C@H](O)[C@H](O)CO[C@H]1n1c(Br)nc2cc(Cl)c(Cl)cc21 | HFF |  |  | Rhesus cytomegalovirus | plaque count | EC50 |  | 6.3 µM
CCCN=C(N)c1ccc(N2CCN(c3ccccc3)CC2)cc1 |  |  | 50 µg/mL | Pneumocystis carinii |  | inhibition |  | 88%
Cc1cn([C@@H]2O[C@H](CO)[C@@H](O)[C@@H]2F)c(=O)nc1N | HELF |  | 0.001 µg/mL | Varicella zoster virus | plaque count | inhibition | YS | 8%
Nc1cc(S(=O)(=O)[O-])cc2cc(S(=O)(=O)[O-])ccc12 | Human conjunctiva cells |  | 5 µg/mL | Herpes simplex virus | cytopathic effect | inhibition |  | 0%
CO[C@H]1/C=C/O[C@@]2(C)Oc3c(C)c(O)c4c(O)c(c5c(c4c3C2=O)NC2(CCN(CC(C)C)CC2)N=5)=NC(=O)/C(C)=C\C=C\[C@H](C)[C@H](O)[C@@H](C)[C@@H](O)[C@@H](C)[C@H](OC(C)=O)[C@@H]1C |  |  |  | Mycobacterium avium intracellulare |  | MIC | 141 | 1 µg/mL
O=C(CC(=O)Nc1ccc(F)cc1)Nc1ccc(F)cc1 |  |  |  | Escherichia coli |  | MIC | ES142 | >300 µM
Nc1ncnc2c1ncn2[C@H]1C[C@@H](S)[C@H](O)[C@@H]1O | CV-1 |  |  | Measles virus | neutral red | EC50 |  | >100 µg/mL
CC(=O)N1N=C(c2sc3ccc(Cl)cc3c2Cl)OC1c1ccccc1 |  |  | 40 µg/mL | Pseudomonas aeruginosa |  | zone |  | 10 mm
Nc1nc2c(ncn2COC(CO)CO)c(=O)[nH]1 |  |  |  | Human cytomegalovirus | plaque count | EC50 | VR6200 (ganciclovir-susceptible) | 3.3 µM
Cc1[nH]n(C(=O)c2sc3ccc(Cl)cc3c2Cl)c(=O)c1N=Nc1cccc([N+](=O)[O-])c1 |  |  | 40 µg/mL | Pseudomonas aeruginosa | agar diffusion / agar | zone | ATCC 27853 | 13 mm
Nc1nc2c(ncn2COCCO)c(=O)[nH]1 | GPE |  |  | Guinea pig herpesvirus | virus yield | EC90 | Lymphotropic | 354 µg/mL
NC(=NCCc1ccc(F)cc1)c1ccc(N2CCN(c3ccccc3)CC2)cc1 |  |  | 10 µg/mL | Pneumocystis carinii |  | inhibition |  | 69%
CC(CCOc1ccc(-c2ccc(Cl)cc2)cc1)CCN1CCN(c2ccncc2)C1=O | RD |  |  | Enterovirus | cytopathic effect | EC50 | Clinical isolate 71 (4643) | 0.0093 µM
Nc1ccc(S(=O)(=O)O)cc1 | Human embryonic lung cells |  | 50 µg/mL | Adenovirus | cytopathic effect | inhibition | TYPE 3 | 0%
O=c1[nH]c(=O)n([C@H]2C[C@H](O)[C@@H](CO)O2)cc1Br | ME |  | 126.8 µg/mL | Murine polyoma virus | hybridisation | inhibition |  | 91.9%
Cn1cc(C(=O)NCc2ccc(Cl)cc2)c(=O)c2cc(CN3CCOCC3)ccc21 | HFF |  | 1.2 µM | Varicella zoster virus | plaque count | inhibition | Varicella isolate RN | 90%
O=C(Nc1cc(C(F)(F)F)cc(C(F)(F)F)c1)NN(Cc1cccc(O)c1)C(=O)Nc1cc(C(F)(F)F)cc(C(F)(F)F)c1 |  |  |  | Escherichia coli |  | MIC | ES142 | >300 µM
CCC(CC)O[C@@H]1C=C(C(=O)O)C[C@H](N)[C@H]1NC(C)=O | MDCK |  |  | Influenza A virus |  | EC50 | Influenza A/Shandong/09/93 (H3N2) | 0.32 µM
C=CCc1ccc(OC)c(OC)c1 |  |  |  | Candida tropicalis | turbidity | MIC90 | 3240 | 350 µg/mL
N#Cc1ccc(CSc2ncnc3c2ncn3[C@@H]2O[C@H](CO)[C@@H](O)[C@H]2O)cc1 |  |  | 10 µM | Toxoplasma gondii |  | inhibition | RH adenosine kinase-deficient | 0%
CCC(CC)[C@H](NC(C)=O)[C@@H]1[C@H](O)[C@@H](C(=O)O)C[C@H]1N=C(N)N | MDCK |  |  | Influenza A virus |  | EC50 | Influenza A/Washington/897/80 (H3N2) | <0.01 µM
C=C/C(C)=C/[C@@]1(C)SC(=O)C(C)=C1O |  |  |  | Escherichia coli |  | MIC | SJ83 (GSHA) | 25 µM
Cc1ccc2c(c1)C(C=NNC(=O)N1c3ccccc3C=Cc3ccccc31)C(c1ccccc1)=N2 |  |  | 1000 µg/mL | Aspergillus terreus | agar diffusion | zone | MTCC-1782 | 10 mm
CCCC(CCC)C(NC(C)=O)C1CC(C(=O)O)CC1N=C(N)N | MDCK |  |  | Influenza A virus |  | EC50 | Influenza A/Victoria/3/75 (H3N2) | 0.06 µM
O=S(=O)([O-])c1ccc(NS(=O)(=O)c2ccccc2)c2c(S(=O)(=O)[O-])cccc12 | Human amnion AV3 cells |  | 10 µg/mL | Adenovirus | cytopathic effect | inhibition | TYPE 3 | 0%
CSc1ccc(C2OC(c3sc4ccc(Cl)cc4c3Cl)=NN2C(C)=O)cc1 |  |  | 40 µg/mL | Pseudomonas aeruginosa | agar diffusion / agar | zone | ATCC 27853 | 13 mm
O=c1[nH]c(=O)n([C@@H]2O[C@H](CO)[C@@H](O)[C@@H]2O)cc1/C=C/Cl | HELF |  | 0.001 µg/mL | Varicella zoster virus | plaque count | inhibition | OKA | 78%
O=C1N(CCCCCOc2ccc(-c3ccc(Cl)cc3)cc2)CCN1c1ccncc1 | RD |  |  | Enterovirus | cytopathic effect | EC50 | Clinical isolate 71 (4643) genotype C | 0.038 µM
Nc1ncnc2c1ncn2[C@H]1CC[C@H](O)[C@@H]1O | CV-1 |  |  | Measles virus | cytopathic effect | EC50 |  | <0.1 µg/mL
CC1CCC(C(=O)N(c2cc(C#CC(C)(C)C)sc2C(=O)O)C2CCC(O)CC2)CC1 | Huh7 | R422K |  | Hepatitis C virus | luciferase | fold resistance | Con1 (gt 1b) | 545.8
Cc1[nH]n(C(=O)c2sc3ccc(Cl)cc3c2Cl)c(=O)c1N=Nc1c(Br)cc(Br)cc1Br |  |  | 40 µg/mL | Pseudomonas aeruginosa | agar diffusion / agar | zone | ATCC 27853 | 10 mm
O=C(N[C@@H](C(=O)N1CCC[C@H]1c1ncc(-c2ccc(-c3ccc(-c4cnc([C@@H]5CCCN5C(=O)[C@H](NC(=O)C5CC5)c5ccccc5)s4)cc3)cc2)s1)c1ccccc1)C1CC1 | Huh7.5 | Y93N |  | Hepatitis C virus | luciferase / reporter gene | fold resistance | genotype 1b | 2547
O=S(=O)(O)c1cc(O)c2c(O)cc(S(=O)(=O)O)cc2c1 | Human embryonic lung cells |  | 10 µg/mL | Rhinovirus | cytopathic effect | inhibition |  | 30%
Nc1ncnc2c1ncn2[C@@H]1CC[C@@H](O)[C@H]1O | CV-1 |  |  | Measles virus | neutral red | EC50 | BIL | >10 µg/mL
O=C(NCc1ccc(Cl)cc1)c1c[nH]c2ccc(CCCO)cc2c1=O |  |  |  | Varicella zoster virus | plaque count | EC50 | MAG | 0.1 µM
C=Cc1cn([C@@H]2O[C@H](CO)[C@@H](O)[C@@H]2O)c(=O)[nH]c1=O | HELF |  | 1 µg/mL | Varicella zoster virus | plaque count | inhibition | KANNO | 100%
CCC(O)CN(NC(=O)Nc1cc(C(F)(F)F)cc(C(F)(F)F)c1)C(=O)Nc1ccc(C(F)(F)F)cc1 |  |  |  | Escherichia coli |  | MIC | ES142 | >300 µM
CCOC(=O)c1ccc(N=Nc2c(C)[nH]n(C(=O)c3sc4ccc(Cl)cc4c3Cl)c2=O)cc1 |  |  | 40 µg/mL | Pseudomonas aeruginosa | agar diffusion / agar | zone | ATCC 27853 | 15 mm
COc1cc(OC)c(NC(=S)Nc2ccc(NC(=O)c3ccco3)cc2)cc1Cl | HFF |  |  | Rhesus cytomegalovirus |  | EC50 |  | >20 µM
CC(N)C12CC3CC(CC(C3)C1)C2 | VERO |  |  | Influenza A virus | ELISA | EC50 | Influenza A/Shanghai/16/89 (H3N2) | 0.03 µg/mL
COc1cc(OC)c(NC(=S)Nc2ccc(NC(C)=O)cc2)cc1Cl | HFF |  |  | Simian cytomegalovirus |  | EC50 | Colburn | >20 µM
CC(C)Nc1nc2cc(Cl)c(Cl)cc2n1[C@H]1O[C@@H](CO)[C@H](O)[C@@H]1O | MRC-5 |  |  | Human cytomegalovirus | hybridisation | EC50 | 4955REC (THR700ALA) | 0.06 µM
O=S(=O)(O)c1cccc2c(O)cccc12 | Human embryonic lung cells |  | 50 µg/mL | Adenovirus | cytopathic effect | inhibition | TYPE 3 | 0%
Nc1ncnc2c1ncn2[C@@H]1C[C@H](NC=O)[C@@H](O)[C@H]1O | HFF |  |  | Pichinde virus |  | EC50 |  | >100 µg/mL
CCC(C)n1ncn(-c2ccc(N3CCN(c4ccc(OC[C@H]5CO[C@](Cn6cncn6)(c6ccc(Cl)cc6Cl)O5)cc4)CC3)cc2)c1=O |  |  |  | Aspergillus lentulus | broth dilution | MIC50 |  | 1 µg/mL
O=C(NNC(=O)NC1CCCCC1)Nc1cc(C(F)(F)F)cc(C(F)(F)F)c1 |  |  |  | Klebsiella pneumoniae |  | MIC | KL21 | 100 µM
O=S(=O)([O-])c1ccc2c(O)cc(S(=O)(=O)[O-])cc2c1 | Human amnion AV3 cells |  | 50 µg/mL | Herpes simplex virus | cytopathic effect | inhibition |  | 0%
CCc1cn([C@@H]2O[C@H](CO)[C@@H](O)[C@@H]2O)c(=O)[nH]c1=O | HELF |  | 100 µg/mL | Varicella zoster virus | plaque count | inhibition | KANNO | 29%
CC(C)(CCOc1ccc(-c2ccc(Cl)cc2)cc1)CCN1CCN(c2ccncc2)C1=O | RD |  |  | Enterovirus | cytopathic effect | EC50 | Clinical isolate 71 (4643) | 0.041 µM
CN=C(N)c1ccc(N2CCN(c3ccccc3)CC2)cc1 |  |  | 10 µg/mL | Pneumocystis carinii |  | inhibition |  | 56%
Cc1ccc(N=Nc2c(C)[nH]n(C(=O)c3sc4ccc(Cl)cc4c3Cl)c2=O)c(C)c1 |  |  | 40 µg/mL | Pseudomonas aeruginosa | agar diffusion / agar | zone | ATCC 27853 | 10 mm
CC(=O)N[C@H]1[C@H]([C@H](O)[C@H](O)CO)OC(C(=O)O)=C[C@@H]1N=C(N)N | MDCK |  |  | Influenza B virus |  | EC50 | HONG KONG/5/72 | 1 µM